Measured values from several laboratories, pooled; numbers as filed in NIAID ChemDB.

All rows: growth or infection tests; species: Reovirus; cells: VERO; method: cytopathic effect; endpoint: EC50

ECn is the concentration giving n% inhibition of infection, replication or growth.

structure	strain or isolate	result
Nc1ncnc2c1ncn2C[C@H](O)CO	TYPE 1	50 µg/mL
NC(=O)c1c[se]c([C@@H]2O[C@H](CO)[C@@H](O)[C@H]2O)n1	TYPE 3/ABNEY	1 µg/mL
Nc1ncnc2c1ncn2C[C@H](O)CO	TYPE 1	2 µg/mL
Nc1ncnc2c1ncn2[C@@H]1C=C[C@@H](O)[C@H]1O	TYPE 1	0.7 µg/mL
Nc1nccc2c1ncn2[C@@H]1C[C@H](CO)[C@@H](O)[C@H]1O	TYPE 1	2 µg/mL
Nc1ccn([C@@H]2C[C@H](CO)[C@@H](O)[C@H]2O)c(=O)n1	TYPE 1	0.7 µg/mL
Nc1ncnc2c1ncn2[C@H]1[C@H](O)[C@H](O)[C@]2(CO)O[C@H]12	TYPE 1	2 µg/mL
Nc1ncnc2c1ncn2C[C@H](O)CO	TYPE 1	70 µg/mL
Nc1nccc2c1ncn2[C@@H]1C[C@H](CO)[C@@H](O)[C@H]1O	TYPE 1	0.7 µg/mL
Nc1ncnc2c1c(Br)cn2[C@@H]1O[C@H](CO)[C@@H](O)[C@H]1O	TYPE 1	0.02 µg/mL
Nc1ncnc2c1ccn2[C@@H]1C[C@H](CO)[C@@H](O)[C@H]1O	TYPE 1	4 µg/mL
Nc1nc(N)c2nnn(C[C@H]3CC[C@@H](CO)C3)c2n1	TYPE 1	>100 µg/mL
Nc1nccc2c1ncn2[C@@H]1C[C@H](CO)[C@@H](O)[C@H]1O	TYPE 1	1 µg/mL
Nc1ncnc2c1ccn2[C@@H]1O[C@H](CO)[C@H](O)[C@H]1O	TYPE 1	≥40 µg/mL
Nc1ncnc2c1ncn2C[C@@H](O)[C@H](O)C(=O)O	TYPE 1	100 µg/mL
Nc1ncnc2c1ncn2[C@@H]1OC(C#CI)[C@@H](O)[C@H]1O	TYPE 1	0.78 µM
Nc1ncnc2c1ccn2[C@@H]1O[C@H](CO)[C@@H](O)[C@H]1O	TYPE 1	0.07 µg/mL
Nc1ncnc2c1ncn2C1CC(CO)[C@@H](O)[C@H]1O	TYPE 1	0.4 µg/mL
O=c1[nH]cnc2c1ncn2[C@@H]1C=C(CO)[C@@H](O)[C@H]1O	TYPE 1	150 µg/mL
Nc1nc(N)c2ncn(C[C@H]3CC[C@@H](CO)C3)c2n1	TYPE 1	>200 µg/mL
Nc1ncnc2c1ncn2[C@@H]1C=C(CO)[C@@H](O)[C@H]1O	TYPE 1	0.2 µg/mL
Nc1nccc2c1ncn2[C@@H]1C[C@H](CO)[C@@H](O)[C@H]1O	TYPE 1	1 µg/mL

For reference, 2 entries again:

Nc1ncnc2c1ncn2[C@@H]1C=C[C@@H](O)[C@H]1O ; strain or isolate: TYPE 1 ; result: 0.7 µg/mL
Nc1ncnc2c1ccn2[C@@H]1O[C@H](CO)[C@H](O)[C@H]1O ; strain or isolate: TYPE 1 ; result: ≥40 µg/mL

Neighbouring rows are from separate reports.